Pooled drug test results. Numbers come from NIAID ChemDB, via PubChem.

Shared fields: whole-cell or culture tests; agent: Mycobacterium kansasii; read-out: MIC

An empty or dashed field is not shown. Rows are shuffled and stem from different studies.

N/C(=N\N=C\c1cc(Cl)ccc1O)SCc1cccc(Cl)c1 ; read by: broth dilution ; strain or isolate: ATCC 12478 ; conditions: 14 d ; result: 32 µM
O=C(Oc1cc(Cl)ccc1C(=O)Nc1cccc(Br)c1)c1cnccn1 ; strain or isolate: 235/80 ; conditions: 14 d ; result: 4 µM
O=C(OCc1ccccc1)N1CCC[C@H]1c1cnc(-c2ccccc2)[nH]1 ; strain or isolate: My 6509/96 ; conditions: 14 d ; result: 62.5 µM
N/C(=N\N=C\c1ccccc1)SCc1ccccc1 ; read by: broth dilution ; strain or isolate: 6509/96 ; conditions: 14 d ; result: 125 µM
O=C(Oc1cc(Cl)ccc1C(=O)Nc1cccc(F)c1)c1cnccn1 ; strain or isolate: 6509/96 ; conditions: 7 d ; result: 4 µM
O=c1oc2ccc(Br)cc2c(=S)n1-c1ccc(Cl)cc1 ; strain or isolate: 6509/96 ; conditions: 14 d ; result: 4 µM
O=C(Nc1ccc(F)cc1)c1cc(Cl)ccc1OS(=O)(=O)c1ccccc1 ; strain or isolate: 6509/96 ; conditions: 14 d ; result: 16 µM
COc1ccc2oc(=S)n(-c3cccc(Cl)c3)c(=S)c2c1 ; strain or isolate: My 235/80 ; conditions: 21 d ; result: 32 µM
O=C(Nc1cccc(Cl)c1)c1cc(Cl)ccc1OS(=O)(=O)c1ccccc1 ; strain or isolate: 235/80 ; conditions: 21 d ; result: 16 µM
O=C(Oc1ccc(Cl)cc1C(=O)Nc1ccc(Cl)c(Cl)c1)c1cnccn1 ; strain or isolate: 235/80 ; conditions: 21 d ; result: 4 µM
CC[C@@H](C)[C@H](NC(=O)OCc1ccccc1)c1cnc(-c2ccccc2)[nH]1 ; strain or isolate: My 235/80 ; conditions: 21 d ; result: 62.5 µM
Cc1ccc2oc(=O)n(-c3ccc(Cl)c(Cl)c3)c(=S)c2c1 ; strain or isolate: My 235/80 ; conditions: 21 d ; result: 8 µM
C[C@H](NC(=O)OCc1ccccc1)c1cnc(-c2ccccc2)[nH]1 ; strain or isolate: My 6509/96 ; conditions: 14 d ; result: 125 µM
COc1ccc2oc(=S)n(-c3ccc(F)cc3)c(=S)c2c1 ; strain or isolate: My 235/80 ; conditions: 21 d ; result: 16 µM
O=C(N[C@@H](Cc1ccccc1)c1cnc(-c2ccccc2)[nH]1)OCc1ccccc1 ; strain or isolate: My 235/80 ; conditions: 21 d ; result: >500 µM
O=C(Nc1cccc(C(F)(F)F)c1)c1cc(Cl)ccc1OS(=O)(=O)c1ccccc1 ; strain or isolate: 235/80 ; conditions: 7 d ; result: 8 µM
Fc1cccc(-n2c(=S)oc3ccc(F)cc3c2=S)c1 ; strain or isolate: My 235/80 ; conditions: 14 d ; result: 16 µM
CC[C@@H](C)[C@H](NC(=O)OCc1ccccc1)c1cnc(-c2ccc([N+](=O)[O-])cc2)[nH]1 ; strain or isolate: My 235/80 ; conditions: 7 d ; result: 32 µM
NC(=O)c1cnccn1 ; strain or isolate: 235/80 ; conditions: 14 d ; result: >1000 µM
CC(C)C[C@H](NC(=O)OCc1ccccc1)c1cnc(-c2ccccc2)[nH]1 ; strain or isolate: My 235/80 ; conditions: 7 d ; result: >250 µM
O=C(Nc1ccc(Br)cc1)c1cc(Cl)ccc1OS(=O)(=O)c1ccccc1 ; strain or isolate: 6509/96 ; conditions: 21 d ; result: 16 µM
N/C(=N\N=C\c1ccccc1)SCc1ccc(Br)cc1 ; read by: broth dilution ; strain or isolate: 6509/96 ; conditions: 14 d ; result: 32 µM
O=C(Oc1ccc(Cl)cc1C(=O)Nc1cccc(Cl)c1)c1cnccn1 ; strain or isolate: 235/80 ; conditions: 7 d ; result: 2 µM
Cc1ccc2oc(=S)n(-c3ccc(Br)cc3)c(=S)c2c1 ; strain or isolate: 6509/96 ; conditions: 21 d ; result: 4 µM
O=C(Nc1ccc(Cl)cc1)c1ccc(Cl)cc1OS(=O)(=O)c1ccccc1 ; strain or isolate: 6509/96 ; conditions: 21 d ; result: 16 µM
Cc1ccc2oc(=O)n(-c3ccc(C(F)(F)F)cc3)c(=S)c2c1 ; strain or isolate: 6509/96 ; conditions: 21 d ; result: 32 µM
N/C(=N\N=C\c1ccccc1O)SCc1ccc(Br)cc1 ; read by: broth dilution ; strain or isolate: 6509/96 ; conditions: 21 d ; result: 32 µM

Repeating the final 3 entries:

SMILES,read by,strain or isolate,conditions,result
O=C(Nc1ccc(Cl)cc1)c1ccc(Cl)cc1OS(=O)(=O)c1ccccc1,-,6509/96,21 d,16 µM
Cc1ccc2oc(=O)n(-c3ccc(C(F)(F)F)cc3)c(=S)c2c1,-,6509/96,21 d,32 µM
N/C(=N\N=C\c1ccccc1O)SCc1ccc(Br)cc1,broth dilution,6509/96,21 d,32 µM